Positions count from the first letter of the chain named.
B1: 4980_N08 (PGT-143) (antibody, V domains shown)
VH: QVQLEQSGAEVKKPGSSVKVSCKASGNTFSKYDVHWVRQATGQGLEWVGWMSHEGDKTESAQRFKGRVTFTRDTSASTAYMELRGLTSDDTAIYYCTRGSKHRLRDYVLYDDYGLINYQEWNDYLEFLDVWGHGTAVTVSS
VL: DTVVTQSPLSLPVTPGEAASMSCTSTQSLRHSNGANYLAWYQHKPGQSPRLLIRLGSQRASGVPDRFSGSGSGTHFTLKISRVEPEDAAIYYCMQGLNRPWTFGKGTKLEIK
B2: 4970_K22 (PGT-144) (antibody, V domains shown)
VH: B1 VH with E5V, S30R, T69S, T74N, M81I, R98G, Y118Q
VL: B1 VL with P12S, P85A, E86D

How the values were obtained:
Assay in all cases: cell-based or functional assay
[1] = target: HIV-1 Env of the clade F pseudoviruses of the cross-clade 162-pseudovirus panel (n = 15)
[2] = target: HIV-1 Env of the clade F viruses (n=15) of the cross-clade 162-pseudovirus panel
[3] = target: HIV-1 Env of the clade AE viruses (n=10) of the cross-clade 162-pseudovirus panel
[4] = target: HIV-1 Env of the clade AE pseudoviruses of the cross-clade 162-pseudovirus panel (n = 10)
[5] = target: HIV-1 Env of the clade B viruses (n=31) of the cross-clade 162-pseudovirus panel
[6] = target: HIV-1 Env of the clade G viruses (n=15) of the cross-clade 162-pseudovirus panel
[7] = target: HIV-1 Env of the clade A viruses (n=26) of the cross-clade 162-pseudovirus panel
[8] = target: HIV-1 Env of the clade C viruses (n=27) of the cross-clade 162-pseudovirus panel
[9] = target: HIV-1 Env of the clade C pseudoviruses of the cross-clade 162-pseudovirus panel (n = 27)
[10] = target: HIV-1 Env of the clade AG pseudoviruses of the cross-clade 162-pseudovirus panel (n = 10)
[11] = target: HIV-1 Env of the clade D viruses (n=25) of the cross-clade 162-pseudovirus panel
[12] = target: HIV-1 Env of all viruses (n=162) of the cross-clade 162-pseudovirus panel
[13] = target: HIV-1 Env of the clade D pseudoviruses of the cross-clade 162-pseudovirus panel (n = 25)
[14] = target: HIV-1 Env of all pseudoviruses of the cross-clade 162-pseudovirus panel (n = 162)
[15] = target: HIV-1 Env of the 162-pseudovirus panel representing all major circulating HIV-1 subtypes (HIV-1)
[16] = target: HIV-1 Env of the clade AG viruses (n=10) of the cross-clade 162-pseudovirus panel
[17] = target: HIV-1 Env of the clade G pseudoviruses of the cross-clade 162-pseudovirus panel (n = 15)

Binder	Median IC50 (µg/ml) against all viruses [1] [µg/mL]	Median IC50 (µg/ml) against all viruses [2] [µg/mL]	Median IC50 (µg/ml) against viruses neutralized with an IC50 <50 µg/ml [2] [µg/mL]	Percent viruses neutralized with an IC50 <50 µg/ml [2] [%]	Median IC50 (µg/ml) against viruses neutralized with an IC50 <50 µg/ml [3] [µg/mL]	Percent viruses neutralized with an IC50 <50 µg/ml [3] [%]	Median IC50 (µg/ml) against all viruses [4] [µg/mL]	Median IC50 (µg/ml) against all viruses [5] [µg/mL]	Median IC50 (µg/ml) against viruses neutralized with an IC50 <50 µg/ml [5] [µg/mL]	Percent viruses neutralized with an IC50 <50 µg/ml [5] [%]	Median IC50 (µg/ml) against viruses neutralized with an IC50 <50 µg/ml [6] [µg/mL]	Percent viruses neutralized with an IC50 <50 µg/ml [6] [%]	Median IC50 (µg/ml) against all viruses [7] [µg/mL]	Median IC50 (µg/ml) against viruses neutralized with an IC50 <50 µg/ml [7] [µg/mL]	Percent viruses neutralized with an IC50 <50 µg/ml [7] [%]	Median IC50 (µg/ml) against all viruses [8] [µg/mL]	Median IC50 (µg/ml) against viruses neutralized with an IC50 <50 µg/ml [8] [µg/mL]	Percent viruses neutralized with an IC50 <50 µg/ml [8] [%]	Median IC50 (µg/ml) against all viruses [9] [µg/mL]	Median IC50 (µg/ml) against all viruses [10] [µg/mL]	other results
B1	> 50	0.98	0.36	67	0.02	40	> 50	25.9	0.39	52	0.21	67	6.34	0.27	65	0.8	0.17	70	> 50	> 50	Median IC50 (µg/ml) against all viruses [11]: 50 µg/mL; Median IC50 (µg/ml) against viruses neutralized with an IC50 <50 µg/ml [11]: 0.28 µg/mL; Percent viruses neutralized with an IC50 <50 µg/ml [11]: 28%; Median IC50 (µg/ml) against viruses neutralized with an IC50 <50 µg/ml [12]: 0.31 µg/mL; Median IC50 (µg/ml) against all viruses [13]: > 50 µg/mL; Median IC50 (µg/ml) against all viruses [14]: > 50 µg/mL; Median IC50 (µg/ml) against viruses neutralized with an IC50 <50 µg/ml [15]: 0.31 µg/mL; Percent viruses neutralized, IC50 < 0.1 µg/ml [15]: 17%; Percent viruses neutralized, IC50 < 1 µg/ml [15]: 37%; Percent viruses neutralized, IC50 < 50 µg/ml [15]: 56%; Median IC50 (µg/ml) against viruses neutralized with an IC50 <50 µg/ml [16]: 1.11 µg/mL; Percent viruses neutralized with an IC50 <50 µg/ml [16]: 50%; Median IC50 (µg/ml) against all viruses [17]: > 50 µg/mL
B2	> 50	29.6	0.51	33	0.1	30	> 50	50	3.37	39	3.84	33	50	2.81	46	48.9	0.85	52	> 50	> 50	Median IC50 (µg/ml) against all viruses [11]: 50 µg/mL; Median IC50 (µg/ml) against viruses neutralized with an IC50 <50 µg/ml [11]: 2.13 µg/mL; Percent viruses neutralized with an IC50 <50 µg/ml [11]: 16%; Median IC50 (µg/ml) against viruses neutralized with an IC50 <50 µg/ml [12]: 2.06 µg/mL; Percent viruses neutralized with an IC50 <50 µg/ml [12]: 38%; Median IC50 (µg/ml) against all viruses [13]: > 50 µg/mL; Median IC50 (µg/ml) against all viruses [14]: > 50 µg/mL; Median IC50 (µg/ml) against viruses neutralized with an IC50 <50 µg/ml [15]: 2.06 µg/mL; Percent viruses neutralized, IC50 < 0.1 µg/ml [15]: 3%; Percent viruses neutralized, IC50 < 1 µg/ml [15]: 16%; Percent viruses neutralized, IC50 < 50 µg/ml [15]: 38%; Median IC50 (µg/ml) against viruses neutralized with an IC50 <50 µg/ml [16]: 18 µg/mL; Percent viruses neutralized with an IC50 <50 µg/ml [16]: 20%; Median IC50 (µg/ml) against all viruses [17]: > 50 µg/mL
